Literature values in patent US5547674A, “Pharmaceutical preparations derived from European mistletoe” (priority 1995, dated 1996).

Tested on: AIDS patients
Conditions: human, in vivo; cited from earlier work

## IL-2: Purified IL-2 which stimulates the production of CD4 cells
  CD4 count of AIDS patients: improve CD4 count of AIDS patients
  toxic side effects: serious side effects which have symptoms similar to acute influenza
